Values quoted from earlier work in patent US5468499A, “Liposomes containing the salt of phosphoramide mustard and related compounds” (Ohio State University, priority 1993, dated 1995).

Assays:
[1] = system: tumor; conditions: cited from earlier work
[2] = cited from earlier work

## C=CC=O
[1]
  side effects among cyclophosphamide metabolites: produces the most side effects

## NP(=O)(O)N(CCCl)CCCl
[1]
  anti-tumor effect among cyclophosphamide metabolites: greatest anti-tumor effect

## O=P(O)(NCCCl)NCCCl
[2]
  water solubility: quite water-soluble
[2]; versus phosphoramide mustard
  stability in aqueous solutions: more unstable in aqueous solutions than the phosphoramide mustard
